Sequences and labels used below:
B1: DH1126 (protein)
chain 1: EVQLVESGGGLIQPGGSLRLSCAASGFIVSSNYMSWVRQAPGKGLEWVSLIYSGGSTFYADSVKGRFTISRDNSKNTLYLQMNSLRAEDTAVYYCARDLQQLGIDYWGQGTLVTVSS
chain 2: DIQMTQSPSSVSASVGDRVTITCRASQGISSWLAWYQQKPGKAPKLLIYSASSLQSGVPSRFSGSGSGTDFTLTISSLQPEDFATYYCQQTNSFPYFGQGTRLDIK
B2: BD56-169 (protein)
chain 1: EVQLLGSGGGLVQPGRSLRLSCAASGFRFDEYAMHWARQAPGKGLEWVAGISWNGGSIGYADSVKGRFTISRDNAKNSLWLQMNSLRAEDTALYYCAKGPDSGSFAWQIDHWGQGTLVTVSS
chain 2: DIQMTQSPSSVSASVGDRVTITCRASQDIGEWLAWYQQRPGKAPKVLICGASSLQSGVPSRFSGSGSGTDFTLTISSLQPEDFATYYCQQASNFPLTFGGGTKVEIK
B3: DH1161-1 (protein)
chain 1: QVQLVQSGAEVKKPGALLRVSCKASGDTSTNHGISWVRQAPGQGLEWMGWINVYNGRTNYAQKVQGRVTMTTDTSTSTAYMELRSLRSDDTAVYYCARWIHRDFDWLPYGMFMDVWGQGTTVTVSS
chain 2: QSALTQPPSASGSPGQSVTISCTGTSSDVGVYKYVSWYQHHPGKAPKLMVYEVSKRPSGVPDRFSGSKSGNTASLTVSGLQAEDEADYYCTSYEGDNTLVFGGGTKLTVL
B4: BD56-152 (protein)
chain 1: EVQLVESGGGLVQPGRSLRLSCAASGFIFEDYAMHWVRQVPGKGLEWVSGISWNSGTIGYADSVKGRFIISRDNAKNSLYLHMSRLRAGDTAFYYCAKDPSFRDSVTYTFSFDSWGQGSLVTVSS
chain 2: SSVLTQPPSVSVAPGETAKITCGGSNVGSKSVHWYQQKPGQAPVLVIQYDSDRPSGIPERFSGSHSGSTAALTITRVEAGDEADYFCQVWDNNRDQVVFGGGTKLTVL
B5: BD56-173 (protein)
chain 1: QLQLQESGPRLVKPSETLSLTCTVSGGSISRTSYYWGWIRQPPGKGLEWIGSIYYNENTLYNPSLKSRVTISVDTSKNQFSLKLSSVTAADTAVYYCARDAPGIFNRDGYIRWFDSWGQGTLVTVSS
chain 2: DIQMTQSPSTLSASVGDRVTITCRATQSINGWLAWYQQKPGKAPKLLIDKASTLESGVPSKFSASGFGTEFTLTVSNLQPDDFATYYCQHYNSYSPMFTFGQGTKLEIK
B6: BD56-159 (protein)
chain 1: QVQLQESGPGLVKPSETLSLTCTVSGASISSYYWTWIRQPPEKGLEWIGHIFYSGSTSINPSLRRRVTMSVDTSKDQVSLKLRSVTAADTAVYYCAGYYNDSTGYDYGFDPWGQGTRVTVSS
chain 2: DIQMTQSPSSLSASVGDRVTITCRASQSIRSYLHWYQQRPGKAPKLLIYAASTLQSGVPSRFSGSASGTDFTLTISSLQPEDFATYYCQQSYSAPLTFGGGTKVEIK
B7: BD56-179 (protein)
chain 1: QVQLVESGGGVVQPGRSLRLSCAVSGFTFSNYGMHWVRQAPGKGLEWVAVMSYDGTNKYYTDSVKGRFTISRDNSKNTLYLQMNSLRAEDTAVYYCARDGEPCSSASCYYSLWPESYMDVWGKGTTVTVSS
chain 2: EIVLTQSPGTLSLSPGERATLSCRASQSVSSTYLAWYQQKPGQAPRLVIYGASSRATGIPDRFSGSGSGTDFTLTISRLEPEDFAVYYCQQYGTSPPFTFGPGTKVDIK
B8: BD56-160 (protein)
chain 1: QVQLVQSGAEVKKPGASVKVSCKASGYTFSNYGITWVRQAPGQGLEWMGWISAYDGYTKSAQNFQGRVTMTTDTSTSTAYMELRSLRSDDTAVYYCARDLEASDYYDSSRNLDYWGQGTLVTVSS
chain 2: SYDLTQPSSVSVSPGQTARITCSGDILAKNYVRWFQQKPGQAPVLVIYKDSERPSGIPERFSGSSSGTTVTLTISGAQVEDEADYYCYSAADNHRVFGGGTKLTVL
B9: BD56-163 (protein)
chain 1: QVQLVQSGAEVEKPGASVKVSCKASGYTFTSYGINWVRQAPGQGLEWMGWISTFNGDTNYAQKVQGRVTMTTDTSTTTAYMELRSLRSDDTAVYYCARENTYYSDSSAYYFDNWGQGTLVTVSS
chain 2: EIVMTQSPATLSVSPGERATLSCRASQSVTSNLVWYQQKPGQAPRLLIYGASTRATGIPARFSGSGSGTEFTLTISSLQSEDFGVYYCQQYDNWPPMYTFGQGTKLEIK
B10: BD56-174 (protein)
chain 1: EVQLVESGGGVVQPGGSLRLSCAASGFSFSSYEMNWVRQAPGKGLEWLSYISNSGGTTYYAESVKGRFTVSRDNAKSTMYLQMRGLRAEDTAVYYCARDGGALSFYPNWFDPWGQGTLVTVSS
chain 2: QSALTQPASVSGSPGQSITISCTGTSSDVGGYDYVSWYQQHPGKAPKLMIYDVTERPSGVSSRFSGSKSGNTASLTISGLQADDEAHYYCSSSTSTVLFGGGTKLTVL
B11: BD56-161 (protein)
chain 1: VQLVQSGAEVKKPGASVKLSCKASGYTFTKYNMHWVRQAPGQGLEWLGMINPSGGSTTYAQKFQGRVTMTRDTSTSTVYVELGSLRSEDTAVFYCARGSHSDTGAFNPDAFDIWGQGTMVTVSS
chain 2: SYRLTQPPSVSVAPGKTARITCGGDSVGSKNVHWYQQKPGQAPVLVIYYDNDRPSGIPERFSGSNSGNTATLTISRVEAGDEADYYCQVWDIGVVFGGGTKLTVL
B12: BD56-184 (protein)
chain 1: EVRLVESGGGLVQPGRSLRLSCTASGFTFGAYGMSWVRQAPGKGLEWVGFIRSKAYGGAIEYAASVEGRFTISRDDSKSCAYLQMNSLKTEDTAVYFCIRVDQWLSSPQTHGDIFDYWGQGILVTVSS
chain 2: QSALTQPASVSGSPGQSITISCTGTSSDVGNYDSVSWFQQHPGKAPKLVISDVSNRPSGTSNRFSGSKSGSTASLTISGLQAEDEADYYCSSYTSSSTYVFGTGTKVNVL

These results are taken from the supplement of paper PMC9931576.

Human monoclonal antibodies against the spike receptor-binding domain (heavy:light variable regions). IC50 against pseudoviruses bearing the spike of naturally observed variants; lower = stronger; >10 µg/ml means not reached at the top dose. No active / inactive call. The stated detection limit is 0.0005 µg/ml; values near or below 0.001 µg/ml lie at the floor of the assay. Some results are limits rather than exact numbers.

The first assay has as its target SARS-CoV-2 Omicron BA.1 spike pseudovirus. Briefly: pseudovirus neutralization IC50; higher = weaker neutralization. The procedure: (§1)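 Single-round VSV luciferase pseudovirus mixed with antibody dilutions for 1 h and put on Huh-7 cells for about a day; IC50 from the dose curve.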
With B1, the “pseudovirus neutralization IC50” value was > 10 µg/mL.
Take B2: the “pseudovirus neutralization IC50” value was 2.11 µg/mL.
Still for that read-out and setting: the same measure for B3: > 10 µg/mL; for B4: 0.0223 µg/mL; for B5: > 10 µg/mL.
Regarding B6, the “pseudovirus neutralization IC50” value was > 10 µg/mL.
As to B7, the “pseudovirus neutralization IC50” value turned out to be 7.84 µg/mL.
For B8, the “pseudovirus neutralization IC50” value is > 10 µg/mL.
Regarding B9, the “pseudovirus neutralization IC50” value came out at 0.879 µg/mL.
Same read-out and setting: the same measure for B10: > 10 µg/mL.
For B11, the “pseudovirus neutralization IC50” value worked out at 1.44 µg/mL.
Regarding B12, the “pseudovirus neutralization IC50” value is > 10 µg/mL.

Another assay concerns the target SARS-CoV-2 Omicron BA.2 spike pseudovirus. Described as above. The procedure: as §1
With B1, the “pseudovirus neutralization IC50” value is > 10 µg/mL.
For the molecule B2, the “pseudovirus neutralization IC50” value was found to be 1.79 µg/mL.
Turning to B3, the “pseudovirus neutralization IC50” value is > 10 µg/mL.
On to B4, for which the “pseudovirus neutralization IC50” value was 0.018 µg/mL.
In the case of B5, the “pseudovirus neutralization IC50” value is > 10 µg/mL.
The same measure, in the same setting: as for B6, the figure is > 10 µg/mL.
On the same count and under the same terms, the same measure for B7: > 10 µg/mL; for B8: > 10 µg/mL; for B9: 1.07 µg/mL.
Still for that read-out and setting: the same measure for B10: > 10 µg/mL; for B11: 2.33 µg/mL; for B12: > 10 µg/mL.

A further assay has as its target SARS-CoV-2 Omicron BA.2.75 spike pseudovirus. The description is as above. The procedure: as §1
Turning to B1, the “pseudovirus neutralization IC50” value was > 10 µg/mL.
The same measure, in the same setting: the same measure for B2: 2.35 µg/mL; for B3: > 10 µg/mL.
With B4, the “pseudovirus neutralization IC50” value was 0.0164 µg/mL.
Take B5: the “pseudovirus neutralization IC50” value is > 10 µg/mL.
Take B6: the “pseudovirus neutralization IC50” value is > 10 µg/mL.
B7: the “pseudovirus neutralization IC50” value was > 10 µg/mL.
The same measure, in the same setting: as for B8, the figure is > 10 µg/mL; as for B9, 1.53 µg/mL.
Same read-out and setting: the same measure for B10: > 10 µg/mL; for B11: 1.81 µg/mL; for B12: > 10 µg/mL.

For a further assay, the target named is SARS-CoV-2 Omicron BA.5 spike pseudovirus. The description is as above. On the procedure:
as §1
On to B1, for which the “pseudovirus neutralization IC50” value is > 10 µg/mL.
The same measure, in the same setting: as for B2, the figure is 1.83 µg/mL; as for B3, > 10 µg/mL.
B4: the “pseudovirus neutralization IC50” value turned out to be 1.98 µg/mL.
On to B5, for which the “pseudovirus neutralization IC50” value was > 10 µg/mL.
Still for that read-out and setting: the same measure for B6: > 10 µg/mL; for B7: > 10 µg/mL; for B8: > 10 µg/mL.
Regarding B9, the “pseudovirus neutralization IC50” value was 0.881 µg/mL.
Still for that read-out and setting: the same measure for B10: > 10 µg/mL; for B11: > 10 µg/mL; for B12: > 10 µg/mL.

A further assay addresses SARS-CoV-2 Omicron BQ.1.1 spike pseudovirus. The description is as above. The procedure:
as §1
For the molecule B1, the “pseudovirus neutralization IC50” value was > 10 µg/mL.
In the case of B2, the “pseudovirus neutralization IC50” value was determined as 6.87 µg/mL.
Regarding B3, the “pseudovirus neutralization IC50” value is > 10 µg/mL.
Turning to B4, the “pseudovirus neutralization IC50” value is > 10 µg/mL.
On the same count and under the same terms, as for B5, the figure is > 10 µg/mL; as for B6, > 10 µg/mL; as for B7, > 10 µg/mL.
The same measure, in the same setting: the same measure for B8: > 10 µg/mL; for B9: 7.68 µg/mL.
Same read-out and setting: as for B10, the figure is > 10 µg/mL.
On to B11, for which the “pseudovirus neutralization IC50” value is > 10 µg/mL.
For the molecule B12, the “pseudovirus neutralization IC50” value was > 10 µg/mL.

Another assay addresses SARS-CoV-2 Omicron XBB spike pseudovirus. The description is as above. On the procedure:
as §1
For B1, the “pseudovirus neutralization IC50” value was > 10 µg/mL.
For the molecule B2, the “pseudovirus neutralization IC50” value was determined as 5.68 µg/mL.
For the molecule B3, the “pseudovirus neutralization IC50” value is > 10 µg/mL.
Same read-out and setting: the same measure for B4: > 10 µg/mL; for B5: > 10 µg/mL.
B6: the “pseudovirus neutralization IC50” value is > 10 µg/mL.
On the same count and under the same terms, as for B7, the figure is > 10 µg/mL; as for B8, > 10 µg/mL; as for B9, 7.68 µg/mL.
Consider B10, for which the “pseudovirus neutralization IC50” value is > 10 µg/mL.
For B11, the “pseudovirus neutralization IC50” value was > 10 µg/mL.
Consider B12, for which the “pseudovirus neutralization IC50” value was > 10 µg/mL.

The target in the next assay is SARS-CoV-2 early D614G spike pseudovirus. Described as above. On the procedure: as §1
Regarding B1, the “pseudovirus neutralization IC50” value turned out to be 0.0616 µg/mL.
Consider B2, for which the “pseudovirus neutralization IC50” value turned out to be 3.55 µg/mL.
B3: the “pseudovirus neutralization IC50” value is > 10 µg/mL.
As for B4, the “pseudovirus neutralization IC50” value is 0.0221 µg/mL.
Take B5: the “pseudovirus neutralization IC50” value was > 10 µg/mL.
Regarding B6, the “pseudovirus neutralization IC50” value was > 10 µg/mL.
Same read-out and setting: as for B7, the figure is > 10 µg/mL.
B8: the “pseudovirus neutralization IC50” value is > 10 µg/mL.
On to B9, for which the “pseudovirus neutralization IC50” value was 1.08 µg/mL.
The same measure, in the same setting: as for B10, the figure is > 10 µg/mL; as for B11, > 10 µg/mL; as for B12, > 10 µg/mL.
